Measured values from several laboratories, pooled; numbers as filed in NIAID ChemDB.

Common to all: cytotoxicity tests; cells: VERO; measure: CC50

CCn is the concentration with n% toxicity to the cells.

smiles | read by | result
CCCCCC#Cc1cn(COCCO)c(=O)[nH]c1=O | - | 39.5 µM
CN(C)CCNc1cccc2sc3ccc(O)cc3c(=O)c12 | - | 3.5 µg/mL
COc1ccc(-c2nc(N)nc(N)n2)cc1OCc1cccc(Cl)c1 | MTT | 285 µM
CC[C@@H](C(C)C)[C@@H](O)[C@H](O)[C@@H](C)[C@H]1CC[C@H]2[C@@H]3CC(=O)[C@H]4C[C@H](O)[C@H](O)C[C@]4(C)[C@H]3CC[C@]12C | MTT | 62 µM
COC1=C(C)C(C)(O)c2[nH]c3ccccc3c2C1=O | - | >128 µM
O=C1C(c2ccc(O)c3[nH]ccc23)=Nc2ccccc21 | MTS | 4.6 µg/mL
Cn1cc(NC(=O)c2cc(NC(=O)CCCCCCCCCC(=O)Nc3cc(C(=O)Nc4cc(C(=O)NCCC(N)=[NH2+])n(C)c4)n(C)c3)cn2C)cc1C(=O)NCCC(N)=[NH2+] | - | 37 µg/mL
CN(C)c1ccc(/C=N/NC(=O)Cc2nn(Cc3ccc(Br)cc3F)c(=O)c3ccccc23)cc1 | MTT | 122.9 µM
CO/N=C1/C(=O)N(CCn2cc(CN3CCN(c4cc5c(cc4F)c(=O)c(C(=O)O)cn5C4CC4)CC3)nn2)c2ccc(F)cc21 | MTT | 4.94 µM
Cc1nc(-c2ccccc2)sc1-c1csc(-c2ccc(Br)cc2)n1 | sulforhodamine | >80 µM
O=c1c(O)c(-c2cc(O)c(O)c(O)c2)oc2cc(O)cc(O)c12 | - | >100 µg/mL
COC(=O)c1cc(OC)c2[nH]c3ccccc3c2c1 | - | >128 µM
COc1ccc(-c2nc(N)nc(N)n2)cc1OCc1ccc(Cl)cc1 | MTT | 335 µM
Cc1cc(C)c2cc(C(=O)NC3CCCCCCC3)[nH]c2c1 | resazurin | 54 µM
CC(C)(C)O/N=C/c1cc(NC(=S)c2ccsc2)ccc1Cl | - | 13 µg/mL
Nn1c(Nc2ccccc2)nc2sc3c(c2c1=O)CCCC3 | - | 50 µg/mL
CCOC(=O)C(NC(=O)c1cccc(Cl)c1)(N1CCN(c2cc3c(cc2F)c(=O)c(C(=O)O)cn3C2CC2)CC1)C(F)(F)F | - | >10 µg/mL
Nc1nc(=O)n([C@@H]2O[C@H](CO)C[C@H]2F)cc1F | - | 40.5 µM
C[C@H](N)C(=O)N[C@@H]1[C@H]2C(=C(O)C[C@@H](O)[C@@H]2O)C(=O)O[C@]1(C)C(Cl)Cl | - | <0.41 µg/mL
Nc1nc2c(ncn2[C@H]2C[C@@]23C[C@@H]3CO)c(=O)[nH]1 | - | >100 µM
c1ccc2c(c1)[nH]c1ccccc12 | - | 109 µM
c1ccc(-c2nc(N=C3N=c4ccccc4=N3)[nH]c2-c2ccccn2)nc1 | - | 2.2 µg/mL
COc1cc(C)cc2c3c([nH]c12)C(=O)c1ccccc1C3=O | - | >128 µM
Cc1nc(-c2ccc(Cl)cc2)sc1-c1csc(Cc2ccc(F)cc2)n1 | sulforhodamine | >80 µM
Cn1c2ccccc2c2cc(C=NNc3nc(-c4cc5cc(Br)ccc5oc4=O)cs3)ccc21 | MTT | 401.7 µM
COc1ccc(COc2ccc(-c3nc(N)nc(N)n3)cc2)cc1 | MTT | 368 µM
CCN(CCO)Cc1c(-c2ccccc2)oc(-c2ccccc2)c1Cl | - | 16.6 µg/mL
CCCCCc1cc2cn(COCCO)c(=O)nc2o1 | - | 3.1 µM
Cn1c2ccccc2c2cc(C=NNC(N)=S)ccc21 | MTT | 202.4 µM
CC[C@@H](C(C)C)[C@@H](O)[C@H](O)[C@@H](C)[C@H]1CC[C@H]2[C@@H]3CC(=O)[C@@]4(F)C[C@@H](O)CC[C@]4(C)[C@H]3CC[C@]12C | MTT | 100 µM
Cc1ccc(NCCNCCO)c2c(=O)c3cc(O)ccc3sc12 | - | 0.81 µg/mL
CC[C@@H](C(C)C)[C@@H](O)[C@H](O)[C@@H](C)[C@H]1CC[C@H]2[C@@H]3CC(=O)[C@H]4C[C@@H](OC(C)=O)CC[C@]4(C)[C@H]3CC[C@]12C | MTT | 238 µM
Cc1nc2ccc(NCCN(C)C)c3c(=O)c4ccccc4n1c23 | - | 1.72 µg/mL
Oc1ccccc1-c1c2nc(c(-c3ccccc3O)c3ccc([nH]3)c(-c3ccccc3O)c3nc(c(-c4ccccc4O)c4ccc1[nH]4)C=C3)C=C2 | - | 5.3 µM
Cn1c2ccccc2c2cc(C=NNc3nc(-c4cccc(F)c4)cs3)ccc21 | MTT | 248.5 µM
CC(=O)c1cn(CC=C(CO)CO)c(=O)[nH]c1=O | - | >100 µM
Cn1c2ccccc2c2cc(C=NNc3nc(-c4cccs4)cs3)ccc21 | MTT | 210.2 µM
COc1cc(-c2nc(N)nc(N)n2)ccc1OCc1ccc(Cl)cc1 | MTT | 408 µM
Nc1ncnc2c1ncn2[C@H]1CC[C@@H](CO)O1 | - | >100 µM
O=S(=O)(O)c1ccc(-c2c3nc(c(-c4ccc(S(=O)(=O)O)cc4)c4ccc([n-]4)c(-c4ccc(S(=O)(=O)O)cc4)c4nc(c(-c5ccc(S(=O)(=O)O)cc5)c5ccc2[n-]5)C=C4)C=C3)cc1.[Na+] | - | >100 µM
CC[C@@H](C(C)C)[C@H](O)[C@@H](O)[C@@H](C)[C@H]1CC[C@H]2[C@@H]3CC(=O)C4C[C@@H](F)CC[C@]4(C)[C@H]3CC[C@]12C | MTT | 43 µM
O=C(Cc1nn(Cc2ccc(Br)cc2F)c(=O)c2ccccc12)N/N=C/c1ccc(Br)cc1 | MTT | >114.9 µM
Nc1nc(N)nc(-c2ccc(OCc3ccc(Cl)cc3Cl)cc2)n1 | MTT | 364 µM
O=C(O)c1[nH]c(=O)[nH]c(=O)c1F | - | <4.12 µg/mL
Nc1ncnc2c1ccn2[C@@H]1O[C@H](CO)[C@@H](O)[C@H]1O | - | 0.4 µg/mL
C[C@@H]1CN(CCn2c3ccccc3c3ccccc32)C[C@H](C)N1 | - | 44 µM
COc1ccc(COc2ccc(-c3nc(N)nc(N)n3)cc2OC)cc1 | MTT | 388 µM
Nn1c(Nc2ccc(Cl)cc2)nc2sc3c(c2c1=O)CCC3 | - | 250 µg/mL
C=Cc1ccc2c(c1)[nH]c1ccccc12 | - | >128 µM
O=C(Cc1nn(Cc2ccc(Br)cc2F)c(=O)c2ccccc12)N/N=C/c1ccc([N+](=O)[O-])cc1 | MTT | >122.5 µM
CCOCn1c([Se]c2ccccc2)c(C)c(=O)[nH]c1=O | - | 107 µM
CC(C)(C)C1=NC(=S)SC2=NC(=O)C3(NN21)c1ccccc1-c1ccccc13 | - | >10 µg/mL
O=C1C(c2c(O)[nH]c3ccccc23)=Nc2ccccc21 | MTS | >32 µg/mL
COc1cc(/C=N/NC(=O)Cc2nn(Cc3ccc(Br)cc3F)c(=O)c3ccccc23)ccc1O | MTT | >122.2 µM
CC[C@H](/C=C/[C@@H](C)[C@H]1CC[C@H]2[C@@H]3CC(=O)[C@@]4(O)C[C@@H](O)CC[C@]4(C)[C@H]3CC[C@]12C)C(C)C | MTT | 901 µM
CCCCCCCCC#Cc1cn(COCCO)c(=O)[nH]c1=O | - | 19.3 µM
CCc1ccc2c(c1)[nH]c1ccccc12 | - | >128 µM
O=c1c2ccccc2nc(-c2ccccc2)n1-c1nnc(C(F)(F)F)s1 | - | 1.16 µg/mL
CO[C@H]1/C=C/O[C@@]2(C)Oc3c(C)c(O)c4c(O)c(c(/C=N/N5CCN(C)CC5)c(O)c4c3C2=O)NC(=O)/C(C)=C\C=C\[C@H](C)[C@H](O)[C@@H](C)[C@@H](O)[C@@H](C)[C@H](OC(C)=O)[C@@H]1C | MTT | 608 µM
CO[C@H]1/C=C/O[C@@]2(C)Oc3c(C)c(O)c4c(O)c(c(C5SCCS5)c(O)c4c3C2=O)NC(=O)/C(C)=C\C=C\[C@H](C)[C@@H]2OC(C)(C)O[C@@H]([C@@H](C)[C@H](OC(C)=O)[C@@H]1C)[C@@H]2C | - | 4.04 µg/mL
COc1ccc(-c2cc3c(c(=O)o2)C[C@H]2[C@@](C)(CC[C@@]4(O)C(C)(C)OC(=O)CC[C@]24C)O3)cc1 | MTT | 200 µg/mL
COc1cc(-c2nc(N)nc(N)n2)ccc1OCc1cccc(Cl)c1 | MTT | 293 µM
Cc1cn([C@@H]2C[C@@H](N=[N+]=[N-])[C@H](COP(=O)(O)OC[C@H]3O[C@@H](n4cc(C)c(=O)[nH]c4=O)C[C@@H]3N=[N+]=[N-])O2)c(=O)[nH]c1=O | - | 13.5 µM
Nc1nc2c(ncn2[C@H]2C[C@]23C[C@@H]3CO)c(=O)[nH]1 | - | >100 µM
Cc1nc(-c2ccc(F)cc2)sc1-c1csc(-c2ccc(F)cc2)n1 | sulforhodamine | >80 µM
Cn1c2ccccc2c2cc(C=NNc3nc(-c4ccccc4O)cs3)ccc21 | MTT | 440.8 µM
CC(Oc1ccc(-c2nc(N)nc(N)n2)cc1)c1ccc(Br)cc1 | MTT | 282.2 µM
CCN(CC)CCNc1ccc(C)c2sc3c(OC)cccc3c(=O)c12 | - | 0.79 µg/mL
O=c1nc2oc(-c3ccccc3)cc2cn1COCCO | - | 63.1 µM
C/C(=N\NC(=O)Cc1nn(Cc2ccc(Br)cc2F)c(=O)c2ccccc12)c1ccc(F)cc1 | MTT | 125.7 µM
Cn1c2ccccc2c2c3c(c4c5ccccc5[nH]c4c21)C(=O)NC3=O | - | >31 µM
COC(=O)[C@]1(Cc2ccc3c(c2)CCC(C)(C)O3)OC(=O)C(O)=C1c1ccc(O)cc1 | MTT | 100 µg/mL
Oc1cccc(-c2c3nc(c(-c4cccc(O)c4)c4ccc([nH]4)c(-c4cccc(O)c4)c4nc(c(-c5cccc(O)c5)c5ccc2[nH]5)C=C4)C=C3)c1 | - | 3.79 µM
N=C1N(/N=C/c2ccccn2)C(=Nc2ccccc2)C(=S)N1c1ccccc1 | - | 9 µg/mL
COC(=O)[C@H](C)NP(=O)(OC[C@@H]1C[C@]12C[C@@H]2n1cnc2c(N)ncnc21)Oc1ccccc1 | - | 27 µM
Cc1nc(-c2ccccc2)sc1-c1csc(-c2cccc(Cl)c2)n1 | sulforhodamine | >80 µM
CCOCn1c([Se]c2ccccc2)c(F)c(=O)[nH]c1=O | - | 13.3 µM
CC[C@@H](C(C)C)[C@@H](O)[C@H](O)[C@@H](C)[C@H]1CC[C@H]2[C@@H]3CC(=O)[C@@]4(O)C[C@@H](OC(C)=O)CC[C@]4(C)[C@H]3CC[C@]12C | MTT | 230 µM
OC(C1CCCCN1)C1CC(c2ccccc2)Nc2c(Cl)cc(Cl)cc21 | - | 3.4 µg/mL
CC[C@H](/C=C/[C@@H](C)[C@H]1CC[C@H]2[C@@H]3CC(=O)[C@@]4(F)CC=CC[C@]4(C)[C@H]3CC[C@]12C)C(C)C | MTT | 935 µM
c1ccc2c(c1)nnn1c3ncccc3nc21 | - | 9.99 µg/mL
Nc1nc(=O)n([C@@H]2O[C@H](CO)[C@@H](O)[C@@H]2F)cc1I | - | 5 µM
CC(C)Cn1c2ccccc2c2c3c(c4c5ccccc5[nH]c4c21)C(=O)NC3=O | - | <8 µM
O=C(Oc1cc(O)c2c(c1)O[C@H](c1ccc(O)c(O)c1)[C@@H](O)C2)c1cc(O)c(O)c(O)c1 | - | >100 µg/mL
Nc1nc2c(ncn2[C@H]2C[C@@]23C[C@H]3CO)c(=O)[nH]1 | - | >100 µM
CO/N=C1/C(=O)N(CCn2cc(CN3CCN(c4cc5c(cc4F)c(=O)c(C(=O)O)cn5C4CC4)CC3)nn2)c2ccc(C)cc21 | MTT | 19.9 µM
CN(C)CCCN1c2ccc3ccccc3c2Sc2cccc(Cl)c21 | - | 2.6 µg/mL
Cc1cn([C@H]2CC(N=[N+]=[N-])[C@@H](COP(=O)(OCCC#N)OC[C@H]3CC[C@@H](n4cnc5c(=O)[nH]cnc54)O3)O2)c(=O)[nH]c1=O | - | >200 µM
O=C(O[C@@H]1Cc2c(O)cc(O)cc2O[C@@H]1c1ccc(O)c(O)c1)c1cc(O)c(O)c(O)c1 | - | >100 µg/mL
O=C1NC(=O)c2c1c1c3ccccc3[nH]c1c1c2c2ccccc2n1Cc1ccccc1 | - | <31 µM
C[C@]12CC/C(=N/NC(=O)c3ccncc3)C[C@@H]1CC[C@@H]1[C@@H]2CC[C@]2(C)[C@@H](O)CC[C@@H]12 | - | >10 µg/mL
CCc1ccc2c(c1)[nH]c1ccc(C=O)cc12 | - | 116 µM
Oc1cc(O)c2c(c1)O[C@H](c1cc(O)c(O)c(O)c1)[C@H](O)C2 | - | >100 µg/mL

For reference, 12 entries again:

smiles	read by	result
Nc1nc(=O)n([C@@H]2O[C@H](CO)C[C@H]2F)cc1F	-	40.5 µM
CC(C)(C)O/N=C/c1cc(NC(=S)c2ccsc2)ccc1Cl	-	13 µg/mL
COc1cc(C)cc2c3c([nH]c12)C(=O)c1ccccc1C3=O	-	>128 µM
CO/N=C1/C(=O)N(CCn2cc(CN3CCN(c4cc5c(cc4F)c(=O)c(C(=O)O)cn5C4CC4)CC3)nn2)c2ccc(C)cc21	MTT	19.9 µM
O=C(Oc1cc(O)c2c(c1)O[C@H](c1ccc(O)c(O)c1)[C@@H](O)C2)c1cc(O)c(O)c(O)c1	-	>100 µg/mL
Cc1cn([C@@H]2C[C@@H](N=[N+]=[N-])[C@H](COP(=O)(O)OC[C@H]3O[C@@H](n4cc(C)c(=O)[nH]c4=O)C[C@@H]3N=[N+]=[N-])O2)c(=O)[nH]c1=O	-	13.5 µM
COC1=C(C)C(C)(O)c2[nH]c3ccccc3c2C1=O	-	>128 µM
Nc1ncnc2c1ncn2[C@H]1CC[C@@H](CO)O1	-	>100 µM
O=C1NC(=O)c2c1c1c3ccccc3[nH]c1c1c2c2ccccc2n1Cc1ccccc1	-	<31 µM
CC(C)(C)C1=NC(=S)SC2=NC(=O)C3(NN21)c1ccccc1-c1ccccc13	-	>10 µg/mL
CC[C@H](/C=C/[C@@H](C)[C@H]1CC[C@H]2[C@@H]3CC(=O)[C@@]4(O)C[C@@H](O)CC[C@]4(C)[C@H]3CC[C@]12C)C(C)C	MTT	901 µM
Nc1nc(=O)n([C@@H]2O[C@H](CO)[C@@H](O)[C@@H]2F)cc1I	-	5 µM

Conditions beyond the fields shown may differ between rows. Blank or dashed fields: not listed here.